## HIV-1 NL4-3 point mutations in Gag: replication capacity

Protein: Gag of HIV-1 NL4-3, numbered from its first residue. Gag is numbered as the whole polyprotein.
Effects on overlapping genes or RNA elements are not listed.

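Random point mutant libraries of HIV-1 NL4-3, one for each of seven fragments, were passaged in CEM T lymphocytes. Sequencing gave the RC index: frequency after two rounds over frequency in the input plasmid.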

Values are the RC index; higher means better tolerated. The authors read about 0.1 or less as lethal, 0.1-0.2 as attenuated and 0.2 or more as tolerated. A change reads original residue, position, new residue.

L101F (base A1092T, region MA) gave 0.0443. For G25E (base G863A, region MA) the result was 0.776. D329G (base A1775G, region CA) read 0.0620. G259R (base G1564A, region CA) read 0.181. Q308L (base A1712T, region CA) gave 0.0446. V135M (base G1192A, region CA) gave 0.116. I92V (base A1063G, region MA) gave 0.127. M171I (base G1302C, region CA) read 0.0730. G354E (base G1850A, region CA) gave 0.301.

K110N (base A1119C, region MA) gave 0.0189. I247L (base A1528C, region CA) gave 0.0162. For K113N (base A1128C, region MA) the result was 0.106. N153D (base A1246G, region CA) gave 0.103. L75P (base T1013C, region MA) gave 0.0912. T151S (base C1241G, region CA) read 0.0813. For Y262F (base A1574T, region CA) the result was 0.0473. For S241I (base G1511T, region CA) the result was 0.0453. L334S (base T1790C, region CA) read 0.0528.

With R286G (base A1645G, region CA) the assay gave 0.0465. For C395G (base T1972G, region NC p7) the result was 0.0761. With T251I (base C1541T, region CA) the assay gave 0.113. I92L (base A1063T, region MA) read 0.171. With E52G (base A944G, region MA) the assay gave 0.168. T186N (base C1346A, region CA) read 0.0542. For A309G (base C1715G, region CA) the result was 0.0686. For H194Q (base T1371A, region CA) the result was 0.0689. With A45T (base G922A, region MA) the assay gave 0.173.

V370I (base G1897A, region p2) gave 0.194. N185Y (base A1342T, region CA) gave 0.0662. T239S (base C1505G, region CA) read 0.0173. M377T (base T1919C, region p2) read 0.0171. For D183E (base T1338A, region CA) the result was 0.0815. With C416S (base T2035A, region NC p7) the assay gave 0.0323. With K436M (base A2096T, region p1) the assay gave 0.0396. For Q90L (base A1058T, region MA) the result was 0.0561. With L138I (base C1201A, region CA) the assay gave 0.169.

With T122I (base C1154T, region MA) the assay gave 0.139.

The first 2 entries again:

| change | base | region | RC index |
|---|---|---|---|
| L101F | A1092T | MA | 0.0443 |
| G25E | G863A | MA | 0.776 |

Nucleotide positions follow pNL4-3. Clones carried about five changes per kilobase, which can drag down the index of neutral changes. An index over 1, which the authors read as above wild type, was rare (1.9% of all changes in the genome).

Source: Al-Mawsawi et al. 2014 (doi:10.1186/s12977-014-0124-6), supplementary data.